Columns and labels:
[1] = test system: M. grisea transformants generated using pBHt2-tk (ChGPD-HSVtk); assay: Growth of HSVtk transformants in the presence of nucleoside analogs (M. grisea)
[2] = test system: M. grisea 4091-5-8 transformants; assay: Regeneration of transformants under direct selection with hygromycin B and F2dU (M. grisea); settings: 50 μM F2dU during regeneration with hygromycin B

| Structure (SMILES) | sensitivity of transformants [1] | effective concentration for completely blocking the growth ([1]; complete medium) | reduction of the number of transformants relative to that generated in the presence of 0 or 5 μM F2dU [2] [fold] | concentration needed to achieve the same degree of growth inhibition (complete block) ([1]; complete medium) [mM] |
| --- | --- | --- | --- | --- |
| O=c1[nH]c(=O)n([C@H]2C[C@H](O)[C@@H](CO)O2)cc1F [F2dU, 5-fluoro-2′-deoxyuridine] | exhibited sensitivity | approximately 0.5 μM | 2 to 4 | – |
| Nc1nc(O)c2ncn(COC(CO)CO)c2n1 [Ganciclovir] | exhibited sensitivity | – | – | 1 |
